# Source: PubChem BioAssay AID1259414 (Drosophila RNAi Screening Center, 2018)
# Purpose: 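Fly genes that alter Wolbachia amount inside host cells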 (primary screen)
# Cell system: Drosophila JW18 cells infected with Wolbachia
# Reagent: long dsRNA against Drosophila genes, 0.25 µg dsRNA per well of a 384-well plate
# Duration: 5 days
# Challenge: cells persistently infected with Wolbachia before knock-down; no added drug
# Measurement: 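Imaged fluorescence in situ signal for Wolbachia 23S rRNA per DAPI-counted host cell, given as a robust z-score within each plate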
# Scale: Wolbachia per cell robust z: higher = more Wolbachia per host cell than the plate typical
# Hit rule: 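Active if absolute robust z reaches 1.5 in two or more of three replicates, leaving out multi- or no-target dsRNAs, genes unexpressed in JW18 and A1 wells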
# In all, the deposit lists about 24,000 reagents; below is an unselected part of those with a known target gene and a result. In the full data, about 1,210 (5%) are marked active. 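Inactive calls also include excluded dsRNAs with several or no targets, genes unexpressed in JW18, and well A1, regardless of score.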 A number with no mark means an inactive call. A plus sign joins genes that one reagent is predicted to hit. Reagent sequences are not shown.
Gene,amplicon,"Wolbachia per cell robust z, rep 1","Wolbachia per cell robust z, rep 2","Wolbachia per cell robust z, rep 3"
brv3,DRSC18657,1.39,-0.618,1.01
brv3,DRSC25544,0.468,1.38,-0.489
shep,DRSC09765,0.995,0.277,-1.09
shep,DRSC09771,-0.0582,-5.9,-0.902
shep,DRSC26847,-1.03,-0.421,-11.6
CG17059,DRSC06654,0.409,-3.29,-1.1
Nup44A,DRSC07248,1.4,1.34,2.5
Nup44A,DRSC28141,0.116,-0.474,-0.61
CG5687,DRSC08568,-0.0213,-0.237,0.285
Vmat + CG13330,DRSC06365,-0.645,-0.154,-0.303
ppk22,DRSC22093,-1,-0.14,-0.0246
CG42809,DRSC02532,0.49,-0.00482,0.779
CG9040,DRSC11053,-0.0327,-0.599,0.0475
CG9626,DRSC16525,0.322,0.659,-2.21
CG9626,DRSC27021,-0.234,-0.957,-4.14
Sil1,DRSC14242,-5.59 (active),-0.171,-6.28
PpV,DRSC18700,-0.397,0.224,0.559
PpV,DRSC23307,-1.33,-0.235,-2
PpV,DRSC29344,0.615,-4.3,0.0132
CG33268,DRSC10143,-1.9,-0.764,0.127
Gss1 + Gss2,DRSC21539,0.98,-0.698,0.146
Mcm6,DRSC18680,-0.359,-0.541,0.26
Mcm6,DRSC25750,-0.914,0.00855,0.153
CR40282,DRSC07814,0.855,0.337,0.398
eIF4E1,DRSC11342,0.545,2.09,1.46
eIF4E1,DRSC23583,0.0861,2.02,0.0603
CR34254,DRSC38834,0.512,-0.638,-0.391
CG1889,DRSC18195,0.714,0.254,-0.56
CG1889,DRSC27433,0.489,-0.768,0.569
zld,DRSC23098,-1.48,0.168,-3.47
zld,DRSC25802,-0.805,-3.37,-1.12
Indy,DRSC10393,-2.2,0.837,-0.849
Indy,DRSC40849,-0.685,-1.01,-2.62
dib,DRSC08711,0.11,-1.42,-0.583
dib,DRSC26980,0.142,-0.299,0.164
Prp16,DRSC19538,-0.392,-0.0263,0.77
Prp16,DRSC19542,0.204,-0.178,0.00388
Prp16,DRSC40741,0.872,0.116,0.501
CG14803,DRSC18556,0.475,0.567,0.67
Ror,DRSC03414,0.661,1.39,-2.35
CG12016 + Dpm2,DRSC08224,0.0438,0.967,0.337
CG12607,DRSC08287,0.553,0.431,-0.528
CG33969,DRSC11777,1.34,0.111,-0.83
mh,DRSC20168,-0.0688,0.654,-0.64
CG12010,DRSC08218,1.15,2.2,0.971

Taken from above:
Prp16 [DRSC19542], Wolbachia per cell robust z, rep 2: -0.178
Value of dib [DRSC26980] under “Wolbachia per cell robust z, rep 1”: 0.142
For “Wolbachia per cell robust z, rep 3”, CG9040 [DRSC11053] shows 0.0475
Under “Wolbachia per cell robust z, rep 3”, CG1889 [DRSC18195] is entered as -0.56
Result of dib [DRSC08711] in “Wolbachia per cell robust z, rep 1”: 0.11
For “Wolbachia per cell robust z, rep 1”, CG1889 [DRSC27433] is entered as 0.489

Further entries follow.
Gene,amplicon,"Wolbachia per cell robust z, rep 1","Wolbachia per cell robust z, rep 2","Wolbachia per cell robust z, rep 3"
CG7328,DRSC10812,-0.782,-0.236,-7.16
Or83c,DRSC12359,0.264,-0.494,0.426
CG14787,DRSC18606,0.452,-1.48,1.03
CG8578,DRSC20114,-4.03 (active),-1.74,2.04
Cpr57A + Obp57d,DRSC06708,0.545,0.449,0.245
Cpr57A + Obp57d,DRSC22719,0.571,-0.676,0.238
CG7650,DRSC10898,1.34,0.699,0.705
CG7650,DRSC29711,-3.46,0.657,0.0833
CG7126,DRSC16201,0.158,0.0709,0.867
CG7126,DRSC25839,-1.73,-0.321,-0.458
CG7126,DRSC39071,-1.39,0.366,0.232
CG8046,DRSC07059,0.917,0.985,-0.428
CG15530,DRSC15067,0.917,0.519,-5.75
CG15530,DRSC29873,0.136,-0.244,0.554
CG13220,DRSC06342,-0.542,-1.14,0.101
Rsod,DRSC15424,-0.272,-0.000281,-0.519
Elba1,DRSC00276,-2.82,-0.102,-1.43
Elba1,DRSC24062,-5.64,1.07,-4.21
Taf12,DRSC16879,-8.01,-0.4,0.168
Taf12,DRSC28181,0.953,0.629,1.12
mira,DRSC16998,1.27,-0.233,-0.214
mira,DRSC26837,0.0703,-0.164,-0.34
naz,DRSC14790,-0.351,-0.131,-0.963
naz,DRSC16199,-5.96,-0.664,-0.375
CG17738,DRSC15257,-0.769,-1.27,0.292
CG17738,DRSC28474,1.18,-0.0856,0.195
Gr36c,DRSC02437,0.648,0.767,0.263
Gr36c,DRSC26305,0.86,-0.00257,-0.684
Usp39,DRSC20032,0.254,-0.572,1.01
Usp39,DRSC29836,-0.326,-0.229,-1.65
CG8586,DRSC07218,0.869,1.08,-0.0593
Sid,DRSC16588,-3.57 (active),-2.99,0.898
Sid,DRSC26318,-2.6 (active),-2.42,-0.22
SkpE,DRSC19431,-3.11,0.447,-1.29
ND-B17.2,DRSC00577,0.689,-2.2,1.25
ND-B17.2,DRSC26940,0.808,0.963,1.16
SmD2,DRSC12536,0.732,-0.113,1.91
SmD2,DRSC28703,-0.882,1.44,0.809
pch2,DRSC14368,-1.6,0.686,1.12
pch2,DRSC41451,-0.0697,0.802,-0.336
Hs6st,DRSC14348,-0.2,-0.742,0.0165
Hs6st,DRSC15182,0.0496,0.976,0.574
Hs6st,DRSC15581,-3.92,0.714,-1.28
Hs6st,DRSC21732,0.982,0.0741,0.322
